Test results published in patent US20070190523A1 (priority 2002, published 2007).

What was measured:
[1] = test system: wild-type HIV-1 strain IIIB; assay: Anti-HIV-1 Cell Culture Assay (EC50), XTT, MT2 cells; format: cell-based
[2] = target: WT (Human immunodeficiency virus type 1 group M subtype B, UniProt P04585); assay: Cell-based assay (MT-4) EC50, WT; set-up: species or system HIV; conditions: read-out: Cell-based assay (MT-4) EC50/nM WT; MT-4, WT
[3] = test system: 30N82I88D; conditions: read-out: Cell-based assay (MT-4) EC50/nM 30N82I88D; MT-4, 30N82I88D

CCCCOC(=O)[C@H](C)NP(=O)(COc1ccc(S(=O)(=O)N(CC(C)C)C[C@@H](O)[C@H](Cc2ccc(N)cc2)NC(=O)O[C@H]2CO[C@H]3OCC[C@H]32)cc1)N[C@@H](C)C(=O)OCCCC
EC50 [1]: 0.5 to 5 µM

O=C1N(Cc2ccc3[nH]ncc3c2)[C@H](Cc2ccc(O)cc2)[C@H](O)[C@@H](O)[C@@H](Cc2ccc(O)cc2)N1Cc1ccc2[nH]ncc2c1
EC50 [2]: > 600 nM

Nc1n[nH]c2ccc(CN3C(=O)N(Cc4cccc(C(=O)O)c4)[C@H](Cc4ccccc4)[C@H](O)[C@@H](O)[C@H]3Cc3ccccc3)cc12 [drawing 801]
EC50 [3]: > 600 nM
